Tested on: Nc1ncnc2c1ncn2[C@@H]1O[C@H](COP(=O)(O)OP(=O)(O)OP(=O)(O)O)[C@@H](O)[C@H]1O
Experiment: purified protein
Conditions: 10 mM MgCl2, pH 7.0, 30 °C, DDM, no drug

PatAB (PatA^WTB^WT) (Streptococcus pneumoniae; Q8DN70:Q521A)
Km: 2200 ± 1000 µM

From paper PMC9541285, “Drug‐dependent inhibition of nucleotide hydrolysis in the heterodimeric ABC multidrug transporter PatAB from Streptococcus pneumoniae” (The Febs Journal, 2022)
